PMC6744242

Biological target: N9 NA (rgSH2; NA of A/Shanghai/2/2013) (Influenza A virus (A/Shanghai/02/2013(H7N9)), UniProt R4NFR6)
Conditions: preliminary experiment, 25 C; zanamivir used at 10 uM in later runs

## CC(=O)N[C@H]1[C@H]([C@H](O)[C@H](O)CO)OC(C(=O)O)=C[C@@H]1N=C(N)N
  sensitive to inhibitor, no constant: NL12 (N3), SH2 (N9), and rgGD17 (N9), were sensitive to NAi zanamivir hydrate

Some compounds may have been tested in ways that are not shown here.
